# Screening data, single-dose tests

From ChEMBL document CHEMBL3988442, “University of Dundee, Small-Polar-MMV Screening Library” (2021).

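Phenotypic screen: M. tuberculosis growth, glucose 7H9 medium, 3 days; the read-out is not stated. Compounds at 500 µM. The record gives no direction; compounds that gave an IC50 in retests scored well above the rest, so higher reads as more growth inhibition. Of about 18,000 compounds tested this way, about 1,400 (7.9%) reached 50% or more in at least one test.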

Each number is a percent effect as filed. The controls that fix the scale are not given in the record; negative values are as filed. Many other results are left out here, so strong results are more common than in the screen.

| structure | percent effect |
|---|---|
| `CN(C)CCNCc1ccc2c(c1)n(C)c(=O)n2C` | 0.07323 |
| `CN(c1cccc(C(N)=O)c1)S(=O)(=O)c1ccccc1` | 35.49 |
| `COCC(=O)NCC(c1ccsc1)N(C)C` (centres undefined) | 6.673 |
| `OCCCN1CCC(=Cc2ccccc2)CC1` | 74.76 |
| `CC(C)c1nnsc1C(=O)N[C@@H]1COCC[C@H]1O` | 6.814 |
| `COC(=O)c1ccn2cncc2c1` | -13.24 |
| `O=C(NCC1CCN(C2CC2)C1)Nc1ccccn1` (centres undefined) | 19.7 |
| `CC(=O)c1cc(CN2Cc3cnn(CCO)c3C2)cs1` | -6.77 |
| `CC(C)N(C)C(=O)c1nccn1C` | -5.27 |
| `NC(=O)CC1CCN(C(=O)c2cncc(Br)c2)CC1` | 3.069 |
| `CC(C)CCNC(=O)CCCC(=O)Nc1ccccn1` | -7.272 |
| `Cc1cc(C(=O)NCc2ncnn2C)c(C)cc1Br` | 1.559 |
| `Cc1csc(CNC(=O)Cn2nc(C)cc2C)n1` | 8.253 |
| `CCCNC(=O)c1ccc2ncn(C)c(=O)c2c1` | 0.543 |
| `Cc1noc(CS(=O)(=O)CC(=O)N2CCCC(C)C2)n1` (centres undefined) | 11.5 |
| `CCOc1ncnc2c1CN(CCOC)CC2` | -9.016 |
| `Cn1ncc(Cl)c1C(=O)N1CCOCC1` | 7.648 |
| `CC1=NOC(C(=O)NCCCn2nc(C)nc2C)C1` (centres undefined) | 13.69 |
| `Cc1nc(Cn2cc(S(=O)(=O)N(C)C)ccc2=O)cs1` | 58.36 |
| `COCCNc1nc(-c2ccc(S(N)(=O)=O)cc2)cs1` | 72.41 |
| `CS(=O)(=O)CCS(N)(=O)=O` | 3.909 |
| `NCC1CCN(c2ncccn2)CC1` | 20.32 |
| `NCC(O)c1ccc(-c2ccccc2)cc1` (centres undefined) | 75.26 |
| `O=C(Cc1ccc(Cl)cc1Br)NC(CO)CO` | 20.11 |
| `Cn1cc(C2CCCCN2)cn1` (centres undefined) | -5.351 |
| `CN(CC(=O)Nc1sccc1C(N)=O)Cc1ccco1` | 48.12 |
| `CNC(=O)CN(C)S(=O)(=O)c1cc(C)c(OC)cc1C` | -13.28 |
| `Cc1ccc(Cl)cc1NCC(=O)N1CCNC1=O` | 12.51 |
| `Cn1cc(C(N)=O)c(NC(=O)c2ccc(Br)cc2)n1` | 58.4 |
| `O=C1NCCCC1NC1CCSCC1` (centres undefined) | 2.086 |
| `CN(C)S(=O)(=O)CCCN1CCC1c1ccc(F)cc1` (centres undefined) | 11.61 |
| `C=Cc1ccc(OC)nc1` | 8.023 |
| `CN(CCC(C)(C)O)C(=O)c1ccc(N)nc1` | 7.627 |
| `C=C(C)COCCNC(=O)c1c(O)cccc1F` | 50.33 |
| `Cc1c[nH]c(C(=O)NC2COc3ccccc3C2)n1` (centres undefined) | 52.64 |
| `Cn1c(C(=O)N[C@H]2COC[C@@H]2O)cc2ccccc21` | 18.05 |
| `COc1ccccc1N1CCCC(N)C1` (centres undefined) | 37.55 |
| `CC(NC(=O)c1ccc(CCNS(C)(=O)=O)s1)C1CC1` (centres undefined) | 27.81 |
| `Cc1cc(F)cc(C(=O)N[C@H](CO)C(C)C)c1` | 15.36 |
| `CCOC(=O)C(C)(O)c1ccc(F)c(F)c1` (centres undefined) | 4.179 |
| `CC(C)(C)Sc1cc(CN)ccn1` | 5.904 |
| `CNCC1(O)CCCc2ccccc21` (centres undefined) | -12.48 |
| `COc1ccc2cc(S(N)(=O)=O)ccc2c1` | 23.31 |
| `CCc1noc(CN2CCCC(CS(N)(=O)=O)C2)n1` (centres undefined) | 14.13 |
| `CCN1CCN(CCOc2ccc(C#N)cc2)CC1` | -12.48 |
| `CCc1nnc(CNC(=O)c2ccc3c(c2)OCO3)s1` | 9.705 |
| `C=C(Br)CNC(=O)C1CC(=O)N(CC(C)C)C1` (centres undefined) | 33.69 |
| `CC1CCN(CCCNc2ccc3nnnn3n2)CC1` | -6.876 |
| `c1ccc2[nH]c(N3CCCNCC3)nc2c1` | 0.15 |
| `CC1CN(C)CCN1C(=O)NCc1ccccc1F` (centres undefined) | 15.92 |
| `c1n[nH]c2c1CNC2` | 1.962 |
| `Cc1nc(CN2CCC(CN)CC2)cs1` | 12.64 |
| `CCN(Cc1ccc(OC)nc1)[C@H]1COC[C@@H]1O` | -15.51 |
| `CC(C)C(Nc1ccncc1Cl)C(=O)N1CCOCC1` (centres undefined) | 1.369 |
| `COc1ccc(C(C(N)=O)N2CCOCC2)cc1` (centres undefined) | 5.764 |
| `Cc1ccc(NS(C)(=O)=O)cc1N1CCCC1=O` | 5.548 |
| `CCc1nn2c(=O)cc(CN3CCCC3)nc2s1` | -5.634 |
| `CNCc1nnc(C2CC2)n1C` | -9.601 |
| `CCOc1cc(CN)ccn1` | 45.16 |
| `COCCN1CCN(c2ccc(OC)cc2)CC1` | 10.29 |
| `COC(=O)c1cc(CNC(=O)CC(C)C)ccc1OC` | 41.04 |
| `c1cc2c(cc1CNCC1CCCO1)OCO2` (centres undefined) | 6.734 |
| `CCn1c(CN(C)CC(F)(F)F)nnc1[C@H]1C[C@@H](N)C1` | 19.25 |
| `CCC(=O)NCC(C)(CC)NC(=O)CC` (centres undefined) | 1.327 |
| `Cn1ncc(N2CCCC2)c(Br)c1=O` | -1.627 |
| `CCCc1cc(C(=O)NC(CC)c2nc(C)c[nH]2)[nH]n1` (centres undefined) | -5.506 |
| `CC(C)(N)CN1CCCN(c2ccc(F)cc2)CC1` | 72.65 |

For reference, 5 entries once more:

- Cc1cc(C(=O)NCc2ncnn2C)c(C)cc1Br : 1.559%
- CS(=O)(=O)CCS(N)(=O)=O : 3.909%
- CN(CCC(C)(C)O)C(=O)c1ccc(N)nc1 : 7.627%
- Cn1cc(C(N)=O)c(NC(=O)c2ccc(Br)cc2)n1 : 58.4%
- CCN(Cc1ccc(OC)nc1)[C@H]1COC[C@@H]1O : -15.51%